From ChEMBL document CHEMBL5236559 (J Med Chem, 2021)

Species: Rattus norvegicus
Assay: Inhibition of recombinant rat TrxR expressed in Escherichia coli upto 100 nM using DTNB as substrate incubated for 30 mins in presence of NADPH by DTNB reduction assay

Row | SMILES | inhibition
1 | Nc1ccc([As]2SCCCS2)cc1 | Active
2 | Nc1ccccc1[As]1SCCCS1 | Active
3 | Nc1cccc([As]2SCCCS2)c1 | Active

The source made the active and inactive calls. The calls are words filed in the database; no cut-off is given here.
